Laboratory results: ChEMBL document CHEMBL5149972, “Novel Antimalarial Tetrazoles and Amides Active against the Hemoglobin Degradation Pathway in Plasmodium falciparum” (J Med Chem, 2021)

Columns and labels:
Format in all cases: functional
[1] = Fold resistance, ratio of EC50 for antiplasmodial activity against lab-derived ELQ300 resistant Plasmodium falciparum Dd2-PfCytB mutant infected in human RBC to EC50 for antiplasmodial activity against chloroquine and pyrimethamine resistant Plasmodium falciparum Dd2 infected in human RBC
[2] = Fold resistance, ratio of EC50 for antiplasmodial activity against lab-derived DSM265 resistant Plasmodium falciparum Dd2-PfDHODH mutant infected in human RBC to EC50 for antiplasmodial activity against chloroquine and pyrimethamine resistant Plasmodium falciparum Dd2 infected in human RBC
[3] = Fold resistance, ratio of EC50 for antiplasmodial activity against lab-derived KAF156 resistant Plasmodium falciparum Dd2-Pfcarl mutant infected in human RBC to EC50 for antiplasmodial activity against chloroquine and pyrimethamine resistant Plasmodium falciparum Dd2 infected in human RBC
[4] = Fold resistance, ratio of EC50 for antiplasmodial activity against chloroquine and piperaquine resistant Plasmodium falciparum Dd2-M343L mutant replaced with endogenous pfcrt locus with the recombinant Dd2 sequence and the PPQ resistance-conferring M343L at endogenous pfcrt Dd2 locus infected in …
[5] = Fold resistance, ratio of EC50 for antiplasmodial activity against piperaquine and pyrimethamine resistant Plasmodium falciparum RF12 infected in human RBC to EC50 for antiplasmodial activity against asexual blood stage Plasmodium falciparum 3D7 infected in human RBC
[6] = Fold resistance, ratio of EC50 for antiplasmodial activity against chloroquine resistant Plasmodium falciparum Dd2-Dd2 mutant replaced with recombinant Dd2 sequence at endogenous pfcrt Dd2 locus infected in human RBC to EC50 for antiplasmodial activity against chloroquine resistant Plasmodium …
[7] = Fold resistance, ratio of EC50 for antiplasmodial activity against lab-derived MMV390048 resistant Plasmodium falciparum Dd2-Pfpi4K mutant infected in human RBC to EC50 for antiplasmodial activity against chloroquine and pyrimethamine resistant Plasmodium falciparum Dd2 infected in human RBC

Cc1ccccc1-n1nnnc1C(c1cncnc1)N(Cc1cccc(C(F)(F)F)c1)C1CC1 (racemic)
Ratio [1]: 1.1 | Ratio [2]: 1.1 | Ratio [3]: 1.1 | Ratio [4]: 0.19 | Ratio [5]: 2.8 | Ratio [6]: 0.5 | Ratio [7]: 1.1
